A mixed list of measured activities; the numbers were collected in NIAID ChemDB.

Common to all: growth or infection tests; species: Rhinovirus; read by: cytopathic effect; endpoint: EC50

ECn is the concentration giving n% inhibition of infection, replication or growth. Neighbouring rows are from separate reports.

SMILES,cells,strain,value
CCn1c(-c2cccc(F)c2)c(C)c(=O)c2cc(C(C)C)ccc21,HELA-OHIO,TYPE 89/41617-GALLO,0.38 µg/mL
COCc1cc(CCCOc2c(Cl)cc(-c3noc(C)n3)cc2Cl)on1,HeLa,Serotype 21,0.009 µg/mL
CSc1nsc(-c2ccc(OCCc3ccccc3)cc2)c1C#N,HELA-OHIO,Serotype 42 (group A),>20 µM
Cc1c(-c2ccccc2)n(-c2cccc(F)c2)c2ccc(C(C)C)cc2c1=O,HELA-OHIO,TYPE 89/41617-GALLO,0.034 µg/mL
CSc1nsc(-c2ccccc2)c1C#N,HELA-OHIO,Serotype 9 (group B),>80 µM
CCOC(=O)c1ccc(OCCCOc2ccc(-c3snc(SC)c3C#N)cc2)cc1,HELA-OHIO,Serotype 85 (group B),>2 µM
Cc1nc(-c2cc(C)c(OCCCc3cc(C(F)(F)F)no3)c(C)c2)no1,HeLa,Serotype 89,0.019 µg/mL
CCOC(=O)c1ccc(OCCC2CCN(c3ccc(C)nn3)CC2)cc1,HELA-OHIO,Serotype 41 (group B),0.7 µM
CSc1nsc(-c2ccc(OCc3ccccc3)cc2)c1C#N,HELA-OHIO,Serotype 89 (group B),2 µM
CCc1nc(-c2cc(C)c(OCCCc3cc(COC)no3)c(C)c2)no1,HeLa,Serotype 21,0.01 µg/mL
CSc1nsc(-c2ccc(OCCCCOc3ccc(C#N)cc3)cc2)c1C#N,HELA-OHIO,Serotype 70 (group A),>2 µM
CCn1c2c(c(=O)c3cc(C(C)C)ccc31)Cc1ccccc1-2,HELA-OHIO,39/209,1.7 µg/mL
CCOC(=O)c1ccc(OCCOc2ccc(-c3snc(SC)c3C#N)cc2)cc1,HELA-OHIO,Serotype 29 (group B),>2 µM
CSc1nsc(-c2ccc(OS(=O)(=O)c3ccc(C)cc3)cc2)c1C#N,HELA-OHIO,Serotype 15 (group B),1 µM
Cc1c(-c2ccccc2)n(-c2ccc(F)cc2)c2ccc(C(C)C)cc2c1=O,HELA-OHIO,TYPE 2,0.038 µg/mL